Pooled drug test results. Numbers come from NIAID ChemDB, via PubChem.

Shared fields: growth or infection tests; species: Rhinovirus; read by: plaque count; endpoint: EC50

Conditions beyond the fields shown may differ between rows.

compound	strain	cell line	value
CN(C)c1ncnc2c1ncn2Cc1ccc([N+](=O)[O-])cc1	Serotype 1B	M-HELA	>50 µM
CN(C)c1nc(C(F)(F)F)nc2c1ncn2Cc1ccccc1Cl	Serotype 31	M-HELA	>8 µM
Nc1nnc2c(n1)[nH]c1ccc(CO)cc12	1059	WI-38	100 µg/mL
Cc1cc(Cl)ccc1Cn1cnc2c(N(C)C)nc(C(F)(F)F)nc21	Serotype 13	M-HELA	>8 µM
CC(C)S(=O)(=O)n1c(N)nc2ccc(C(C(N)=O)c3cccc(F)c3)cc21	1059 (serotype 14)	HeLa	0.04 µg/mL
CN(C)c1nc(C(F)(F)F)nc2c1ncn2Cc1ccc(Cl)cc1Cl	Serotype 3	M-HELA	>8 µM
Cc1cc(CCCOc2c(C)cc(-c3nnn(C)n3)cc2C)on1	Serotype 14	-	0.336 µg/mL
Cn1c2ccccc2c2nnc(NCCCN)nc21	1059	WI-38	10 µg/mL
CN(C)c1nc(C(F)(F)F)nc2c1ncn2Cc1cccc(F)c1	Serotype 8	M-HELA	>8 µM
CN(C)c1nc(Cl)nc2c1ncn2Cc1ccc(Cl)cc1	Serotype 29	M-HELA	>5 µM
Cc1cc(CCCOc2c(C)cc(-c3coc(C)n3)cc2C)on1	Serotype 3	-	0.658 µg/mL
CCC(CO)Nc1nnc2c3ccccc3n(C)c2n1	33342	WI-38	4 µg/mL
CN(C)c1nc(C(F)(F)F)nc2c1ncn2Cc1ccc([N+](=O)[O-])cc1	TYPE 1B	M-HELA	0.07 µM
CNC(=O)C(c1ccc2nc(N)n(C(C)C)c2c1)c1cccc(F)c1F	1059 (serotype 14)	HeLa	0.06 µg/mL
Cn1c2ccccc2c2n[nH]c(=S)nc21	HGP	WI-38	45 µg/mL
CN(C)c1ccc(Cn2cnc3c(N(C)C)nc(C(F)(F)F)nc32)cc1	TYPE 1B	M-HELA	0.29 µM
CC(C)S(=O)(=O)n1c(N)nc2ccc(C(C(N)=O)c3cc(F)cc(F)c3)cc21	1059 (serotype 14)	HeLa	0.06 µg/mL
Fc1ccc(Cn2cnc3c(Nc4cccc(F)c4)nc(C(F)(F)F)nc32)cc1	Serotype 4	M-HELA	13 µM
CN(C)c1ncnc2c1ncn2Cc1ccc(F)cc1	Serotype 1B	M-HELA	>50 µM
Fc1cccc(Cn2cnc3c(Nc4cccc(F)c4)nc(C(F)(F)F)nc32)c1	Serotype 20	M-HELA	11 µM
Cc1ccc(Cn2cnc3c(N(C)C)nc(C(F)(F)F)nc32)cc1	TYPE 5	M-HELA	>8 µM
CN(C)c1nc(C(F)(F)F)nc2c1ncn2Cc1ccc(Cl)c(NC=O)c1	Serotype 15	M-HELA	>8 µM
OCCCNc1nnc2c3ccccc3n(CCc3ccccc3)c2n1	HGP	WI-38	45 µg/mL
CNC(=O)C(c1ccc2nc(N)n(C3CCCC3)c2c1)c1ccccc1F	1059 (serotype 14)	HeLa	0.03 µg/mL
Cn1c2ccccc2c2nnc(NCCCOC(=O)CCC(O)O)nc21	HGP	WI-38	100 µg/mL
Cc1ccc(Cn2cnc3c(N(C)C)nc(C(F)(F)F)nc32)c(C)c1	Serotype 30	M-HELA	>8 µM
CN(C)c1ncnc2c1ncn2Cc1cccc(O)c1	Serotype 1B	M-HELA	>50 µM
Cc1cc(CCCCCOc2c(Cl)cc(C3=NCCO3)cc2Cl)on1	TYPE 11	HeLa	0.017 µg/mL

An empty or dashed field is not shown. ECn: concentration that inhibits the pathogen or its effect by n%.